Results of unrelated studies side by side (data: NIAID ChemDB).

All rows: growth or infection tests; agent: Mycobacterium smegmatis

MIC50, MIC90 and the like: level of inhibition, or share of isolates inhibited. Percent inhibition refers to the dose given; in toxicity tests it is the harm to the cells. An empty or dashed field is not shown. a–b is a range or a potency band. Zone: diameter of growth inhibition. Neighbouring rows are from separate reports. ECn: concentration that inhibits the pathogen or its effect by n%.

compound,strain or isolate,changes,cell line,read by,read-out,tested at,result
CCCCCCCCCCCCCC#CC(=O)OCC(O)CO,mc22389,-,-,-,MIC99,-,19.1 µM
CC(C)(C)OC(=O)NCCCCCN,-,-,HepG2 cells,MTT,EC50,-,>50 µg/mL
Cc1ccccc1-c1cnc(-c2ccc(-c3ccccc3C(F)(F)F)o2)[nH]1,-,-,-,broth dilution / turbidity,MIC100,-,11–20 µg/mL
Cc1ccc(NC(=O)c2cc(Cl)ccc2OC(=O)[C@@H](Cc2cc3ccccc3[nH]2)NC(=O)OCc2ccccc2)cc1,ATCC 700084,-,-,broth dilution,MIC100,-,110 µM
CCc1cc(C(N)=S)ccn1,MC^2 846,-,-,-,MIC,-,>80 µg/mL
C[C@H]1COc2c(N3CCC4(CC3)OCCO4)c(F)cc3c(=O)c(C(=O)O)cn1c23,-,-,-,agar,MIC99,-,3.86 µM
CC(C)N[C@@H](C)[C@@H](C)NC(C)C,ATCC 607,-,-,-,inhibition,1000 µg/mL,0%
C[C@H]1COc2c(N3CCN(C)C(c4ccccc4)C3)c(F)cc3c(=O)c(C(=O)O)cn1c23,-,-,-,agar,MIC99,-,114 µM
CCCCCCCCCCCCN(C)CCN(C)C,ATCC 607,-,-,-,inhibition,4 µg/mL,100%
CN[C@@H]1[C@H](O[C@H]2[C@H](O[C@H]3[C@H](O)[C@@H](O)[C@H](N=C(N)N)[C@@H](O)[C@@H]3N=C(N)N)O[C@@H](C)[C@]2(O)C=O)O[C@@H](CO)[C@H](O)[C@H]1O,ATCC 607,-,-,agar diffusion / agar,zone,25 µg/mL,35 mm
Cc1ccc(S(=O)(=O)Nc2cccc(C(=O)NC3NC(c4ccc(F)cc4)=CS3)c2)cc1,-,-,-,turbidity,MIC80,-,>100 µM
O=C(O)c1cc2cccc([N+](=O)[O-])c2[nH]1,-,-,-,PCR,EC50,-,314.2 µM
Cc1[nH]c(-c2ccc(-c3ccc(C(F)(F)F)cc3)o2)nc1-c1ccc(Cl)cc1,-,-,-,broth dilution / turbidity,MIC100,-,3–10 µg/mL
CCCCCCSCCCCCCCCCCC#CC(=O)O,mc2155,-,-,-,MIC99,-,76.6 µM
c1ccc(Oc2cccc(CN3CCN(Cc4ccc5c(c4)OCO5)CC3)c2)cc1,-,-,-,-,EC50,-,78.1 µM
CS(=O)(=O)Nc1cccc(C2=NN(c3nc(-c4ccccc4)c4cc(Cl)ccc4n3)C(c3ccco3)C2)c1,-,-,-,turbidity,MIC80,-,40–80 µM
Cc1[nH]c(-c2ccc(-c3cccc(OC(F)(F)F)c3)o2)nc1-c1ccccc1,-,-,-,broth dilution / turbidity,MIC100,-,11–20 µg/mL
CC(C)(C)CC(C)(C)NCCNC(C)(C)CC(C)(C)C,ATCC 607,-,-,-,EC50,-,<30 µg/mL
O=C(O)c1cn(C2CC2)c2cc(N3C[C@@H]4CCCN[C@@H]4C3)c(F)cc2c1=O,G89C mutant,-,-,-,MIC99,-,2 µg/mL
CCOC(=O)c1c(-c2ccccc2)c2ccc(Cl)cc2oc1=O,mc2155,-,-,resazurin,MIC90,-,>100 µg/mL
CCc1nc(NCCCc2ccccc2)c2cc(C)sc2n1,mc2155,cydA + cdyAB,-,resazurin,EC50,-,0.83 µM
C[C@H]1COc2c(N3CCC(O)(c4ccc(Cl)cc4)CC3)c(F)c([N+](=O)[O-])c3c(=O)c(C(=O)O)cn1c23,-,-,-,agar,MIC99,-,6.04 µM
COc1ccc(NC(=O)c2cc(Cl)ccc2OC(=O)[C@@H](NC(=O)OCc2ccccc2)C(C)C)cc1,ATCC 700084,-,-,broth dilution,MIC100,-,251 µM
CC1COc2c(N3CCN(C(c4ccccc4)c4ccc(Cl)cc4)CC3)c(F)c([N+](=O)[O-])c3c(=O)c(C(=O)O)cn1c23,-,-,-,agar,MIC99,-,0.66 µM
CCCCCCCCCCCCCC#CC(=O)OCCO,mc2651,-,-,-,MIC99,-,13.6 µM
CCCCCCCCCCCCNCCNCCCCCCCCCCCC,ATCC 607,-,-,-,EC50,-,>250 µg/mL
CCCCCCCCCCCCCCSCC#CC(=O)O,mc2155,-,-,-,MIC99,-,80 µM
Cc1[nH]c(-c2ccc(-c3ccc(Cl)cc3Cl)o2)nc1-c1ccccc1,-,-,-,broth dilution / turbidity,MIC100,-,11–20 µg/mL
C#CCCCCCCCCCCCCC#CC(=O)O,mc2651,-,-,-,MIC99,-,152.6 µM
O=C(Nc1cccc(S(=O)(=O)NC2=NCCC2)c1)c1cc(-c2ccco2)nc2ccccc12,-,-,-,turbidity,MIC80,-,>100 µM
CC(=O)Nc1cc2c3c(c1)n(C/C=C\Cn1cc(C)c(=O)[nH]c1=O)c(=O)n3CCC2,mc2155,-,-,resazurin / absorbance,EC50,-,>160 µg/mL
CO[C@H]1/C=C/O[C@@]2(C)Oc3c(C)c(O)c4c(O)c(c5c(c4c3C2=O)NC2(CC3CCC(C2)N3C)N=5)=NC(=O)/C(C)=C\C=C\[C@H](C)[C@H](O)[C@@H](C)[C@@H](O)[C@@H](C)[C@H](OC(C)=O)[C@@H]1C,-,-,-,luminescence,MIC90,-,300 µg/mL
c1ccc(Oc2cccc(CN3CCN(c4ccccn4)CC3)c2)cc1,-,-,-,-,EC50,-,<100 µM
CC(C)NCCCNC(C)C,ATCC 607,-,-,-,inhibition,1000 µg/mL,0%
COc1ccc(NC(=O)c2cc(-c3ccco3)nc3ccccc23)cc1S(=O)(=O)N1CCOCC1,-,-,-,turbidity,MIC80,-,>100 µM
Cc1ccc([N+](=O)[O-])cc1NC(=O)Nc1ccc(Cl)c(Cl)c1,-,-,-,broth dilution / turbidity,MIC90,-,0.5 µg/mL
CNC(=O)[C@@H](C)[C@@H]1NC(=O)/C(=C(O)/C=C/C(C)=C/[C@@H](C)[C@@H]2O[C@]3(C)O[C@@H](C=C[C@]34CO4)[C@@H]2C)C1=O,SMR5,-,-,resazurin,MIC90,-,100 µg/mL
CO[C@H]1/C=C/O[C@@]2(C)Oc3c(C)c(O)c4c(O)c(c5c(c4c3C2=O)NC2(CC3CCC(C2)N3)N=5)=NC(=O)/C(C)=C\C=C\[C@H](C)[C@H](O)[C@@H](C)[C@@H](O)[C@@H](C)[C@H](OC(C)=O)[C@@H]1C,-,-,-,luminescence,MIC90,-,320 µg/mL
CCC(C)NCCNC(C)C,ATCC 607,-,-,-,inhibition,30 µg/mL,100%
Cc1[nH]c(-c2ccc(-c3ccc(Cl)c(OC(F)(F)F)c3)o2)nc1-c1ccc(F)cc1,-,-,-,broth dilution / turbidity,MIC100,-,20–50 µg/mL
CC(NCCNC(C)C(C)(C)C)C(C)(C)C,ATCC 607,-,-,-,inhibition,250 µg/mL,0%
COc1c(N2C[C@@H]3CCCN[C@@H]3C2)c(F)cc2c(=O)[nH]c(=O)n(C3CC3)c12,A91V mutant,-,-,-,MIC99,-,200 µg/mL
Cc1cn(C/C=C\CN2c3cccc4c3N(CCC4)S2(=O)=O)c(=O)[nH]c1=O,mc2155,-,-,resazurin / absorbance,EC50,-,>160 µg/mL
COc1c(N2CC[C@@H](CN)C2)c(F)cc2c(=O)[nH]c(=O)n(C3CC3)c12,WT,-,-,-,MIC99,-,25 µg/mL
CCCCCCCCCCCCCCCC#CCC#CC(=O)O,mc2155,-,-,-,MIC99,-,78.6 µM
CO[C@H]1/C=C/O[C@@]2(C)Oc3c(C)c(O)c4c(O)c(c5c(c4c3C2=O)N[C@]2(CC[C@@H]3CC[C@H](C2)N3C)N=5)=NC(=O)/C(C)=C\C=C\[C@H](C)[C@H](O)[C@@H](C)[C@@H](O)[C@@H](C)[C@H](OC(C)=O)[C@@H]1C,-,-,-,luminescence,MIC90,-,1190 µg/mL
CCCCCCCCCCCCCCCCCC#CC(=O)O,mc22389,-,-,-,MIC99,-,>200 µM
CCC(C)(C)NCCNC(C)(C)CC,ATCC 607,-,-,-,inhibition,250 µg/mL,0%
CCCN1C2CCC1CC1(C2)N=C2C(=C3NC(=O)/C(C)=C\C=C\[C@H](C)[C@H](O)[C@@H](C)[C@@H](O)[C@@H](C)[C@H](OC(C)=O)[C@H](C)[C@@H](OC)/C=C/O[C@@]4(C)OC5=C(C)C(O)C(C3=O)C2=C5C4=O)N1,-,-,-,luminescence,MIC90,-,290 µg/mL
CN[C@@H]1[C@H](O[C@H]2[C@H](O[C@H]3[C@H](O)[C@@H](O)[C@H](N=C(N)N)[C@@H](O)[C@@H]3N=C(N)N)O[C@@H](C)[C@]2(O)C=O)O[C@@H](CO)[C@H](O)[C@H]1O,ATCC 607,-,-,agar diffusion / agar,zone,10 µg/mL,35 mm
COc1cc2c(cc1OC)CN(c1c(F)c([N+](=O)[O-])c3c(=O)c(C(=O)O)cn4c3c1OCC4C)CC2,-,-,-,agar,MIC99,-,12.51 µM
Fc1ccccc1N1CCN(Cc2cccc(Oc3ccccc3)c2)CC1,-,-,-,-,EC50,-,>100 µM
O=C(Nc1cccc(S(=O)(=O)NC2=NCCCC2)c1)c1cc(-c2ccco2)nc2ccccc12,-,-,-,turbidity,MIC80,-,>100 µM
CCCCCCCCCCCCCCCCC#CC(=O)O,mc22389,-,-,-,MIC99,-,63.7 µM
CC1COc2c(N3CCN(Cc4ccc5c(c4)OCO5)CC3)c(F)c([N+](=O)[O-])c3c(=O)c(C(=O)O)cn1c23,-,-,-,agar,MIC99,-,1.48 µM
O=C(Nc1ccc(S(=O)(=O)Nc2nccs2)cc1)c1cc(-c2ccccc2)nc2ccccc12,-,-,-,turbidity,MIC80,-,40–80 µM